Source: article PMC9664764 (iScience, 2022)

Biological target: RBD-SBP (SARS-CoV-2 Spike RBD, 319-541AA, SBP tag) (SARS-CoV-2, Wuhan-Hu-1 (P0DTC2), UniProt P0DTC2)
Test: SPR
Conditions: both partners purified

Binder | Kd | koff | kon
Ab326 (antibody, V domains shown) VH: EVQLVESGGGVVQPGRSLRLSCAASGFTFSHYPMHWVRQAPGRGLEWVAVISYDGSNQHYVDSVKGRFTISRDNSKNTLYLQMNSLRAEDTAVYFCASLITMIRGVPDYWGQGTLVTVSS VL: DIQMTQSPSSLSASVGDRVTITCRASQSISNYLNWYQQKPGKAPNLLIFAASSLQSGVPSRFSGSGSGTEFTLTISSLQPEDFAAYYCLQTYSTPRTFGQGTRLEIK | 0.0346 nM | 3e-05 s⁻¹ | 866000 M⁻¹ s⁻¹
Ab354 (antibody, V domains shown) VH: QVQLVQSGAEVKKPGASVTVSCKASGFLFTGYYMHWVRQAPGQGLEWMGWINPNSGASNYTRKFQGRVTMTRDTSISATYMKLSRLTSDDTAVYYCARDLAFSMVRGALDYWGQGTLVTVSS VL: QLVLTQPPSASGSPGQSVTISCTGTSSDVGGYNYVSWYQHHPGKAPKLMIYEVSKRPSGVPDRFSGSKSGNTASLTVSGLQAEDEADYYCNSYAGNNNWVFGTGTKVTVL | 0.00534 nM | 8.44e-06 s⁻¹ | 1.58e+06 M⁻¹ s⁻¹
Ab496 (antibody, V domains shown) VH: EVQLVQSGPEVKKPGTSVKVSCKASGFIFTNSAVQWVRQARGQRLEWIGWIVVGSGNPNYAQKFQERVTITRDRSTSTAYMELSSLTSEDTAVYYCAAFPYYYDNSGSGPWGQGTLVTVSS VL: DIQLTQSPSSLSASVGDRVTITCQASQDIRNNLNWYQQIPGKAPKLLIYDASNLETGVPSRFSGSASGTDFTFTISSLQPEDVATYYCQQYANLPPFTFGPGTKVDIK | 0.152 nM | 0.000193 s⁻¹ | 1.27e+06 M⁻¹ s⁻¹
